# Patent US5981167A, “Surface plasmon resonance based enzymatic assay” (priority 1998, dated 1999)
# Like-named read-outs stand apart in the source and are kept apart here.
# Tests used:
# [1] = molecular target: purified double mutant form of CMV protease, A143V/V209A (Human herpesvirus 5 strain AD169, UniProt P16753, A143V); type: biochemical; settings: 22° C.; read-out: apparent affinity (km)
# [2] = molecular target: CMV protease, soluble A143V/V209A (human CMV) (UniProt P16753)
# [3] = molecular target: T1, CMV protease, A143V/V209A (Human herpesvirus 5 strain AD169, UniProt P16753, A143V); assay: Effect of dithiothreitol on CMV protease activity; type: biochemical
# [4] = molecular target: Native Peptide (Biotin)-R--G--V--V--N--A--S--C--R--L--A-(pY)
# [5] = molecular target: maturation site peptide […] (CMV)
# [6] = molecular target: Serine analog (Biotin)-R--G--V--V--N--A--S--S--R--L--A-(pY)
# [7] = molecular target: T1, CMV protease, A143V/V209A; settings: 2 hours
# [8] = molecular target: T1, CMV protease, A143V/V209A; type: biochemical; parameters: recombinant autolysis-site double mutant; settings: read-out: IC-50, competition with biotinylated native substrate
molecule,measurement,setting,value
"AGVVNASSRLA [CMV maturation site peptide, P2' serine analog]",Km,[1],900 µM
native maturation site peptide (…),IC-50 of inhibition of the enzyme activity by competition with the biotinylated native substrate,[2],1 mM
"O[C@H](CS)[C@H](O)CS (racemic) [DTT, Dithiothreitol]",effect of addition to inactive protease purified in the absence of DTT,[3]; 20-hour assay,complete reactivation
same,lowering of percent cleavage of the native substrate,"[3]; DTT reduced from 800 μM to 4 μM, 2 hours",12%
"CMV protease, soluble A143V/V209A (from UniProt P16753) (enzyme)",cleavage of the substrate (BIAcore-based CMV assay),[4],50%
same,Km,[5],893 µM
same,cleavage of the substrate (BIAcore-based CMV assay),[6],50%
(Biotin)-R--G--V--V--N--A--S--S--R--L--A-(pY) [serine analog],cleavage of the substrate,[7]; 0.5 μM protease,50%
(Biotin)-R--G--V--V--N--A--S--C--R--L--A-(pY) [native substrate],cleavage of the substrate,[7]; 0.06 μM protease,50%
"CMV protease, soluble A143V (from UniProt P16753) (enzyme)",Km,[5],962 µM
"GVVNASCRLA [native peptide, native maturation site peptide of CMV protease]",IC50,[8],~1000 µM
